{"source": "paper PMC6449974", "key": {"[1]": {"target": "biotinylated CA K158C (unassembled HIV-1 CA) (HIV-1)", "assay": "SPR; Biacore S200; biotinylated CA K158C or biotinylated CA hexamer immobilised on streptavidin-modified CM5 chip; CypA injected at 1.1-72.8 uM; 10 mM HEPES pH 8, 0.005% Tween 20, 2 mM EDTA, 150 mM NaCl; equilibrium analysis, single experiments"}, "[2]": {"target": "biotinylated cross-linked CA hexamer (CA A14C/E45C/W184A/M185A) (HIV-1)", "assay": "SPR; Biacore S200; biotinylated CA K158C or biotinylated CA hexamer immobilised on streptavidin-modified CM5 chip; CypA injected at 1.1-72.8 uM; 10 mM HEPES pH 8, 0.005% Tween 20, 2 mM EDTA, 150 mM NaCl; equilibrium analysis, single experiments"}, "[3]": {"target": "cross-linked self-assembled CA tubes (CA A14C/E45C co-assembled with CA K158C-AF488) (HIV-1)", "assay": "TIRF fluorescence microscopy binding assay; cross-linked CA tubes held on the cover slip by an anti-p24 antibody; CypA 1-50 uM (1 uM AF647-CypA plus unlabelled CypA) flowed in; 50 mM Tris pH 8, 150 mM NaCl; equilibrium binding model on the CypA:CA molar ratio"}}}
{"substance": "wild type cyclophilin A (CypA) (from UniProt P62937 1-165) (enzyme)", "values": [{"measurement": "Kd", "setting": "[1]", "result": 26.8, "unit": "µM"}, {"measurement": "Kd", "setting": "[2]", "result": 23.7, "unit": "µM"}, {"measurement": "Kd", "setting": "[3]", "result": 14.5, "unit": "µM"}, {"measurement": "stoichiometry N (molar ratio of CypA:CA when saturated)", "setting": "[3]", "result": 0.4}]}
